Measurements as given in US20060094071A1, “Method for enriching and tracking pathologic modified prions-proteins(prpsc)” (priority 2002, published 2006).

The binders below were run against pathologically-altered prion protein (PrP^Sc) from BSE-positive cattle (cattle), P10279.

Binder	Efficiency (relative PrP^Sc binding efficiency, peptide 2 = 100%) [%]
KLVFF [Peptide 2 (Lys-Leu-Val-Phe-Phe)]	100
LPFFD [Peptide 3 (Leu-Pro-Phe-Phe-Asp)]	46.6
RVVIA [Peptide 1 (Arg-Val-Val-Ile-Ala)]	54.7
IIGL [Peptide 4 (Propionyl-Ile-Ile-Gly-Leu)]	55.1
GVVIA [Peptide 6 (Gly-Val-Val-Ile-Ala)]	64.5
RIIGL [Peptide 5 (Propionyl-Arg-Ile-Ile-Gly-Leu)]	58.1
